A mixed list of measured activities; the numbers were collected in NIAID ChemDB.

Shared fields: tests in culture; organism: Influenza A virus

Two numbers with a dash give a range or band.

smiles	tested at	strain or isolate	cells	endpoint	value
CC(=O)N[C@H]1[C@H]([C@H](O)[C@H](O)CO)OC(C(=O)O)=C[C@@H]1N=C(N)N	-	H2N2 A/Singapore/1/57	MDCK	EC50	0.014 µM
CC(=O)N[C@H]1[C@H]([C@H](O)[C@H](O)CO)OC(C(=O)O)=C[C@@H]1N=C(N)N	-	A/Singapore/1/57	MDCK	EC50	0.014 µM
N=C(N)c1ncn([C@@H]2O[C@H](CO)[C@@H](O)[C@H]2O)n1	-	H5N1 A/duck/MN/1525/81	MDCK	EC50	18 µg/mL
CC(C)C12CC3CC(CC([NH3+])(C3)C1)C2	1 µg/mL	H2N2 A/Singapore/1/57	MDCK	inhibition	100%
CC(=O)N[C@H]1[C@H]([C@H](O)[C@H](O)CO)OC(C(=O)O)=C[C@@H]1N	-	H2N2 A/Singapore/1/57	MDCK	EC50	1.5 µM
CO[C@@H]1[C@H](C)OC(O[C@H]2CC(Oc3cc4cc5c(c(O)c4c(O)c3C)C(=O)[C@@H](OC3C[C@@H](OC4C[C@H](OC6C[C@](C)(O)[C@@H](OC(C)=O)[C@H](C)O6)[C@@H](O)[C@H](C)O4)[C@H](O)[C@@H](C)O3)[C@H]([C@@H](OC)C(=O)[C@@H](O)[C@H](C)O)C5)O[C@@H](C)[C@H]2OC(C)=O)C[C@@H]1O	0.5 µg/mL	H7N1 avian/Ulster 73	CEF	inhibition	<100%
CC12CC3CC(C)(C1)CC(N)(C3)C2	8 µg/mL	H2N2 A/Singapore/1/57	MDCK	inhibition	100%
NC(=O)c1ncn([C@@H]2O[C@H](CO)[C@@H](O)[C@H]2O)n1	-	A/Singapore/1/57	MDCK	EC50	70 µM
C1CCN(CCN2CCCCCC2C23CC4CC(CC(C4)C2)C3)CC1	-	H2N2 A2 JAPAN/305/57	MDCK	EC50	>840 µM
NC12CC3CC(CC(C3)C1)C2	-	H2N2 Kaizuka/2/65	MDCK	EC50	0.15 µg/mL
CN1CCCCC1C12CC3CC(CC(C3)C1)C2	-	H2N2 A2 JAPAN/305/57	MDCK	EC50	>978 µM
C=CCN1CCC2(C1)C1CC3CC(C1)CC2C3	100 µM	A2 JAPAN	Chick embryo fibroblasts	inhibition	>70%
[NH3+]C12CC3CC(C1)CC(c1ccccc1)(C3)C2	8 µg/mL	H2N2 A/Singapore/1/57	MDCK	inhibition	100%
O=C(O)C(Cl)P(=O)(O)O	-	A/JAPAN	-	EC50	320 µM
CCN1CCC2(C1)C1CC3CC(C1)CC2C3	100 µM	A2 JAPAN	Chick embryo fibroblasts	inhibition	40–70%
CCC12CC3(C)CC(C)(CC([NH3+])(C3)C1)C2	8 µg/mL	H2N2 A/Singapore/1/57	MDCK	inhibition	100%
NC12CC3CC(CC(C3)C1)C2	-	H2N3 A/HK/7/87	MDCK cells	EC50	2.4 µM
[NH3+]C1CCC(C23CC4CC(CC(C4)C2)C3)CC1	2 µg/mL	H2N2 A/Singapore/1/57	MDCK	inhibition	100%
CN(C)CCN1CCCCC1C12CC3CC(CC(C3)C1)C2	-	H2N2 A2 JAPAN/305/57	MDCK	EC50	51.3 µM
C1CCC2(CC1)CCNC2	100 µM	A2 JAPAN	Chick embryo fibroblasts	inhibition	<20%
[NH3+]CCCC12CC3CC(CC(C3)C1)C2	0.5 µg/mL	H2N2 A/Singapore/1/57	MDCK	inhibition	100%
NC(N)=Nc1nncs1	-	A/ANN ARBOR	MDCK	EC50	2.3 µg/mL

Again, the opening 3 rows:

smiles	tested at	strain or isolate	cells	endpoint	value
CC(=O)N[C@H]1[C@H]([C@H](O)[C@H](O)CO)OC(C(=O)O)=C[C@@H]1N=C(N)N	-	H2N2 A/Singapore/1/57	MDCK	EC50	0.014 µM
CC(=O)N[C@H]1[C@H]([C@H](O)[C@H](O)CO)OC(C(=O)O)=C[C@@H]1N=C(N)N	-	A/Singapore/1/57	MDCK	EC50	0.014 µM
N=C(N)c1ncn([C@@H]2O[C@H](CO)[C@@H](O)[C@H]2O)n1	-	H5N1 A/duck/MN/1525/81	MDCK	EC50	18 µg/mL

Blank or dashed fields: not listed here. Rows are shuffled and stem from different studies. ECn is the concentration giving n% inhibition of infection, replication or growth. Percent inhibition refers to the dose given; in toxicity tests it is the harm to the cells.